For the data set, the system named is C[C@@H]1O[C@@H]1P(=O)(O)O. The data set can be described thus: purified protein. The conditions noted are these: co-substrate GSH (10 mM stock, 10 μL in 100 μL mix), MnCl2, KCl, Tris-HCl, 37 °C, 5 min.

As usually defined, the Km is the substrate concentration at which the rate is half of its maximum. As for FosC3 (Aeromonas caviae; Q3H), the Km was 70.99 ± 4.31 µM.

The values are drawn from paper PMC12037509.
